Laboratory results: article PMC5797941
The exact form of at least one protein or probe is not confirmed. Where a protein sequence is shown, tags need not be part of it.

Target: T1, His6-SlyA (UniProt P0A8W3)
T1 sequence (looked up, limits assumed): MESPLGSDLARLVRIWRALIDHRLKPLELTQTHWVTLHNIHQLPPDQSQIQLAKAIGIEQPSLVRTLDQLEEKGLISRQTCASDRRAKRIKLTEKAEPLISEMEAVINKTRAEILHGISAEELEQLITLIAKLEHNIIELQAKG
Assay: EMSA
Details: apparent Kd, range given for the group, 20 µl: 10 mM Tris/HCl pH 7.5, 50 mM KCl, 1 mM DTT, ~1 nM biotin-DNA, 0-500 nM SlyA, 25 °C, 30 min, recombinant protein, protein details: His6 (pLATE-51, pGS2469), probe letters rebuilt from the primers and the genome

“TGGTGAATATTATTGATCAATTAATGTTAAGAATTAATGCATTAAATATATAAATTAATTATTAAATAAGCACATTTAATCCATTTTGTAGATGATTGAGTATTCGCGGTAGTTATGATTAGATTGTTTTCGCAACAAAAACATTATGGATTATTATGCTGTGGTAAATGACTCATTCCACGGCAATGGATTCTGTTTTTATCAGAACCCGTATCTTTATGTTTTCCGAATTTTACTCATTTTGCTTTTTCTTATTTTATATGCATGATAAATCATATTCTTCAGGATTATTTCTCTGCATTCCAATAAGGGAAAGGGAGTTAAGTGTGACAGTGGAGTTAAGT (double strand) [leuO-leuL intergenic region]”: binds (label: 5' biotin (TC51 strand)).

“AACAAACAACTCCTTGTCCGGAGAACCCCAACGGGGAAAACGAAATTCAATACCGTCGGTAATGACGAAAGGCAGGTGAGAAGGGCAACGAGACTGCAAATGTACTGAATTTCATGTAATCAACCACACTGCCTGTGAACACACAGACAGAGAAATACTTTCTGACTTCGGGTCAGAATGTATAACGATTACAAATAGTCATCAGCACATTACACCTCTTGAATTGATGGGTTGCATAGAAAATATACACCTTAAGTGTAATTAAAATTTGCGGTTAATCAAAAGAGCGCGGTGGAAAGGGGAATATCTGCCGGGTACAGGACATGTAAAACGCGAGCTTGTTTCCGGAAAAATGTATCGTTTGCAGAAGAATAAAAATAGCCTGGAAAGCGCCTCGGGG (double strand) [mdtM upstream region]”: binds (label: 5' biotin (TC57 strand)).
